Measurements as given in US8557848B2, “4,5-ring annulated indole derivatives for treating or preventing of HCV and related viral infections” (Merck Sharp & Dohme Corp., priority 2006, dated 2013).
The match of structure and compound is tentative.

Legend:
[1] = molecular target: HCV NS5B polymerase (NS5BΔCT21, from HCV-Con 1 isolate, genotype 1b) (Hepatitis C virus genotype 1b, UniProt Q9WMX2); experiment: HCV NS5B Polymerase Inhibition Assay; conditions: [33P]-CTP incorporation, 22° C. for 2 hours
Text: A chemically synthesized 75-mer version, designated DCoH75, whose sequence matches the 3′-end of D-RNA, and DCoH75ddC, where the 3′-terminal cytidine of DCoH75 is replaced by dideoxycytidine, were used for assaying the NS5B enzyme activity as described in Ferrari et al., 12th International Symposium on HCV and Related Viruses, P-306 (2005). The sequence of the template RNA was: 5′-UGUGCCGGUCUUUCUGAACGGGAUAUAAACCUGGCCAGCUUCAUCGAACAAGUUGCCGUGUCUAUGACAUAGAUC-3′. A soluble C-terminal 21-amino acid truncated NS5B enzyme form (NS5BΔCT21, from HCV-Con 1 isolate, genotype 1b, Genbank accession number AJ238799) was produced and purified from Escherichia coli as C-terminal polyhistidine-tagged fusion protein as described in Ferrari et al., J. Virol. 73:1649-1654 (1999). A typical assay contained 20 mM Hepes pH 7.3, 10 mM MgCl2, 60 mM NaCl, 100 μg/ml BSA, 20 units/ml RNasin, 7.5 mM DTT, 0.1 μM ATP/GTP/UTP, 0.026 μM CTP, 0.25 mM GAU, 0.03 μM RNA template, 20 μCi/ml [^33P]-CTP, 2% DMSO, and 30 or 150 nM NS5B enzyme. Reactions were incubated at 22° C. for 2 hours, then stopped by adding 150 mM EDTA, washed in DE81 filter plate in 0.5M di-basic sodium phosphate buffer, pH 7.0, and counted using Packard TopCount after the addition of scintillation cocktail. Polynucleotide synthesis was monitored by the incorporation of radiolabeled CTP. The effect of the Compounds of Formula (I) on the polymerase activity was evaluated by adding various concentrations of a Compound of Formula (I), typically in 10 serial 2-fold dilutions, to the assay mixture. The starting concentrations ranged from 200 μM to 1 μM. An IC50 value for the inhibitor, defined as the compound concentration that provides 50% inhibition of polymerase activity, was determined by fitting the cpm data to the Hill equation Y=100/(1+10^((LogIC50-X)*HillSlope)), where X is the logarithm of compound concentration, and Y is the % inhibition. Ferrari et al., 12th International Symposium on HCV and Related Viruses, P-306 (2005) described in detail this assay procedure. […]

[2] = system: HCV replicon cells (replicon RNA level); experiment: Cell-Based HCV Replicon Assay; conditions: replicon RNA level by real time PCR (Taqman), cells harvested on day 3
Protocol: To measure cell-based anti-HCV activity of the a Compound of Formula (I), replicon cells were seeded at 5000 cells/well in 96-well collagen I-coated Nunc plates in the presence of the Compound of Formula (I). Various concentrations of a Compound of Formula (I), typically in 10 serial 2-fold dilutions, were added to the assay mixture, with the starting concentration ranging from 250 μM to 1 μM. The final concentration of DMSO was 0.5%, fetal bovine serum was 5%, in the assay media. Cells were harvested on day 3 by the addition of 1× cell lysis buffer (Ambion cat #8721). The replicon RNA level was measured using real time PCR (Taqman assay). The amplicon was located in 5B. The PCR primers were: 5B.2F, ATGGACAGGCGCCCTGA; 5B.2R, […]; the probe sequence was FAM-labeled CACGCCATGCGCTGCGG. GAPDH RNA was used as endogenous control and was amplified in the same reaction as NS5B (multiplex PCR) using primers and VIC-labeled probe recommended by the manufacturer (PE Applied Biosystem). The real-time RT-PCR reactions were run on ABI PRISM 7900HT Sequence Detection System using the following program: 48° C. for 30 min, 95° C. for 10 min, 40 cycles of 95° C. for 15 sec, 60° C. for 1 min. The ΔCT values (CT5B-CTGAPDH) were plotted against the concentration of test compound and fitted to the sigmoid dose-response model using XLfit4 (MDL). EC50 was defined as the concentration of inhibitor necessary to achieve ΔCT=1 over the projected baseline; EC90 the concentration necessary to achieve ΔCT=3.2 over the baseline. Alternatively, to quantitate the absolute amount of replicon RNA, a standard curve was established by including serially diluted T7 transcripts of replicon RNA in the Taqman assay. All Taqman reagents were from PE Applied Biosystems. Such an assay procedure was described in detail in e.g. Malcolm et al., Antimicrobial Agents and Chemotherapy 50: 1013-1020 (2006).
HCV Replicon assay data for selected Compounds of Formula (I) is provided below in Table 1, wherein the compound numbers correspond to the compound numbering set forth in the above specification. The data is designated as follows: “A” for EC50 values less than 0.5 micromolar (μM), “B” for EC50 values between 0.5 and 1.5 μM and “C” for EC50 values greater than 1.5 μM.

Row | SMILES | IC50 [1] [nM] | EC50 [2] [nM] | EC50 ([2]; listed as 6) [nM]
1 | CS(=O)(=O)NC(=O)c1c(-c2ccc[nH]c2=O)c2c3sccc3ccc2n1Cc1ccc(F)cc1F | < 25 | > 1500 | < 500
2 | CS(=O)(=O)NC(=O)c1c(-c2ccc[nH]c2=O)c2c3occ(Cl)c3ccc2n1Cc1cc(F)ccc1F | < 25 | < 500 | –
3 | O=C(O)c1c(-c2ccc[nH]c2=O)c2c3occc3ccc2n1Cc1cc(F)ccc1F | 25 to 100 | < 500 | –
